A mixed list of measured activities; the numbers were collected in NIAID ChemDB.

Common to all: growth or infection tests; organism: Herpes simplex virus 1

Lines come from different laboratories, so protocols vary. ECn is the concentration giving n% inhibition of infection, replication or growth. Blank or dashed fields: not listed here.

SMILES,cell line,measure,read by,strain or isolate,value
Nc1ncnc2c1ncn2C[C@H](O)CO,PRK,EC50,cytopathic effect,KOS,>100 µg/mL
COC(=O)[C@]1(O)C[C@@H]2O[C@@]1(C)n1c3ccccc3c3c4c(c5c6ccccc6n2c5c31)C(=O)NC4,HEF,EC50,cytopathic effect,K1,>25 µM
CC[C@H](C)[C@H](N)C(=O)O[C@H]1C[C@H](n2cc(/C=C/Br)c(=O)[nH]c2=O)O[C@@H]1COP1(=O)OCc2cccc(C)c2O1,VERO,EC50,plaque count,KUPKA (TK+),0.4 µg/mL
Cc1ccccc1-n1c(O)c(N=O)c(=O)[nH]c1=O,VERO,EC50,cytopathic effect,Leningrad/248/88,>100 µg/mL
O=C(CP(=O)(O)O)O[C@H]1C[C@H](n2cc(CCCl)c(=O)[nH]c2=O)O[C@@H]1CO,VERO,EC50,cytopathic effect,BRAND,>24.2 µM
Cc1cccc2c1OP(=O)(OC[C@H]1O[C@@H](n3cc(/C=C/Br)c(=O)[nH]c3=O)C[C@@H]1OC(=O)[C@@H](N)Cc1ccccc1)OC2,VERO,EC50,plaque count,KUPKA (TK+),0.46 µg/mL
O=c1[nH]c(=S)n([C@H]2C[C@H](O)[C@@H](CO)O2)cc1F,MRC-5,EC50,plaque count,KOS,0.61 µM
CC#CSC[C@H]1O[C@@H](n2cnc3c(N)ncnc32)[C@H](O)[C@@H]1O,E6SM,EC50,cytopathic effect,KOS,250 µM
COc1cc([C@@H]2c3cc4c(cc3[C@H](O)[C@H]3COC(=O)[C@H]23)OCO4)cc(OC)c1OC,MRC-5,EC50,,A4-3,0.014 µg/mL
CC(=O)O[C@H]1C[C@H](n2cc(/C=C/Br)c(=O)[nH]c2=O)O[C@@H]1COP1(=O)OCc2ccccc2O1,VERO,EC50,plaque count,KUPKA (TK+),0.38 µg/mL
Nc1ncnc2c1ncn2C[C@@H](CO)OCP(=O)(O)O,HEL,EC50,cytopathic effect,KOS S2242-resistant,0.11 µg/mL
Nc1nc2c(ncn2COCCO)c(=O)[nH]1,HEL,EC50,,KOS,0.2 µM
O=C(O)P(=O)(O)O,HEL,EC50,cytopathic effect,KOS HPMPA-resistant,27.2 µg/mL
COc1cc([C@@H]2c3cc(O)c(O)cc3C[C@H]3COC(=O)[C@@H]32)cc(OC)c1OC,MRC-5,EC50,,ITOH,0.234 µg/mL
Nc1ccn(C[C@@H](CO)OCP(=O)(O)O)c(=O)n1,HEL,EC50,cytopathic effect,KOS HPMPC-resistant,2.9 µg/mL
Nc1nc(Cl)c2nnn(C[C@H]3CC[C@@H](CO)C3)c2n1,E6SM,EC50,cytopathic effect,VMW1837 (TK-),>200 µg/mL
Nc1nc2c(ncn2COCCO)c(=O)[nH]1,U373-MG,EC50,plaque count,,0.8 µM
O=c1[nH]c(=S)n([C@@H]2O[C@H](CO)[C@@H](O)[C@@H]2O)cc1I,MRC-5,EC50,plaque count,TK-,240 µM
Nc1nc(N)c2nnn(C[C@H]3CC[C@@H](CO)C3)c2n1,E6SM,EC50,cytopathic effect,B2006 (TK-),>400 µg/mL
Cc1cccc2c1OP(=O)(OC[C@H]1O[C@@H](n3cc(/C=C/Br)c(=O)[nH]c3=O)C[C@@H]1OC(=O)[C@H](C)N)OC2,VERO,EC50,plaque count,KUPKA (TK+),0.34 µg/mL
O=Nc1c(O)n(Cc2ccc(F)cc2)c(=O)[nH]c1=O,VERO,EC50,cytopathic effect,Leningrad/248/88,>100 µg/mL
COP(=O)(CC(=O)O[C@H]1C[C@H](n2cc(CCCl)c(=O)[nH]c2=O)O[C@@H]1CO)OC,VERO,EC50,cytopathic effect,BRAND,>0.7 µM
O=c1[nH]c(=O)n([C@H]2C[C@H](O)[C@@H](CO)O2)cc1/C=C/Br,HeLa,EC50,plaque count,,<0.001 µM
C[C@H](N)C(=O)OCP(=O)(OC[C@H]1O[C@@H](n2cnc3c(Cl)nccc32)C[C@@H]1O)Oc1ccccc1,HEL,EC50,,KOS,>100 µM
Nc1ncc2c(ncn2COC(CO)CO)n1,HEL,EC50,cytopathic effect,KOS ACV-resistant,0.11 µg/mL
COC[C@H](Cc1ccc(OC)c(OC)c1)[C@@H](COC)Cc1ccc2c(c1)OCO2,,EC50,,1,53.42 µg/mL
Nc1ncnc2c1ncn2CC/C=C\P(=O)(O)O,MRC-5,EC50,cytopathic effect,SC16,>300 µM
O[C@H]1[C@@H](O)COC(n2cnc3cc(Cl)c(Cl)cc32)[C@@H]1O,E6SM,EC50,cytopathic effect,KOS,>400 µg/mL
Cc1cn([C@@H]2O[C@H](CO)[C@@H](O)[C@@H]2O)c(=S)[nH]c1=O,RPMI8226,EC50,plaque count,KOS,9.9 µM
Nc1nc2c(ncn2COC(CO)CO)c(=O)[nH]1,HEL,EC50,cytopathic effect,KOS HPMPC-resistant,0.004 µg/mL
CCOC(=O)CP(=O)(OC)OC[C@H]1O[C@@H](n2cc(I)c(=O)[nH]c2=O)C[C@@H]1O,VERO,EC50,cytopathic effect,BRAND,>1.9 µM
O=c1[nH]c(=O)n([C@H]2C[C@H](O)[C@@H](COP3(=O)OCc4cc5ccccc5cc4O3)O2)cc1/C=C/Br,VERO,EC50,plaque count,KUPKA (TK+),0.14 µg/mL
O=c1[nH]c(=O)n([C@@H]2O[C@H](CO)[C@@H](O)[C@@H]2O)cc1I,HEL,EC50,plaque count,,23.5 µM
Nc1ncnc2c1ncn2[C@@H]1O[C@H](CO)C[C@@H]1O,,EC50,cytopathic effect,B2006 (TK-),5.6 µg/mL
Nc1ccccc1[Se][Se]c1ccccc1N,,MIC,,,40 µg/mL
O=C(O)P(=O)(O)O,HEL,EC50,cytopathic effect,KOS,33.5 µg/mL
Nc1nc2c(nnn2C[C@H]2CC[C@@H](CO)C2)c(=O)[nH]1,E6SM,EC50,cytopathic effect,KOS,>200 µg/mL
COC(=O)[C@H](C)NP(=O)(OC[C@@H]1C[C@]12C[C@@H]2n1cnc2c(N)ncnc21)Oc1ccccc1,BSC-1,EC50,ELISA,,7 µM
COP(=O)(CC(=O)OC[C@H]1O[C@@H](n2cc(CCCl)c(=O)[nH]c2=O)C[C@@H]1O)OC,VERO,EC50,cytopathic effect,BRAND,>6.8 µM
O=c1[nH]c(=S)n([C@H]2C[C@H](O)[C@@H](CO)O2)cc1I,MRC-5,EC50,plaque count,TK-,>271 µM
Nc1nc2c(ncn2OC(/C=C/P(=O)(O)O)CO)c(=O)[nH]1,MRC-5,EC50,cytopathic effect,SC16,>300 µM
O=c1[nH]c(=O)n([C@@H]2O[C@H](CO)[C@@H](O)[C@@H]2O)cc1/C=C/Br,HEL,EC50,plaque count,,0.06 µM
CC(=O)CCC(=O)O[C@H]1C[C@H](n2cc(/C=C/Br)c(=O)[nH]c2=O)O[C@@H]1COP1(=O)OCc2cccc(C)c2O1,VERO,EC50,plaque count,KUPKA (TK+),1.57 µg/mL
OC[C@H]1O[C@@H](n2cnc3cc(Cl)c(Cl)cc32)[C@H](O)[C@@H]1O,E6SM,EC50,cytopathic effect,KOS,>10 µg/mL
Nc1nc2c(ncn2COC(CO)CO)c(=O)[nH]1,HEF,EC50,cytopathic effect,K1,0.1 µM
C[C@H](N)C(=O)OCP(=O)(OC[C@H]1O[C@@H](n2ccc3c(N)ncnc32)C[C@@H]1O)Oc1ccccc1,HEL,EC50,,KOS,>100 µM
C[C@H](Cc1ccc(O)c(O)c1)[C@@H](C)Cc1ccc(O)c(O)c1,,EC50,,1,4.12 µg/mL
CC#Cc1cn([C@H]2C[C@H](O)[C@@H](CO)O2)c(=O)[nH]c1=O,HEL,EC50,plaque count,,76 µM
O=c1[nH]c(=S)n([C@@H]2O[C@H](CO)[C@@H](O)[C@@H]2O)cc1Cl,MRC-5,EC50,plaque count,TK-,>340 µM
OC[C@H]1O[C@@H](n2cnc3cc(Cl)c(Cl)cc32)[C@@H](O)[C@@H]1O,E6SM,EC50,cytopathic effect,KOS,>10 µg/mL
NC(=O)c1ccnc([C@@H]2O[C@H](CO)[C@@H](O)[C@H]2O)c1,PRK,EC50,cytopathic effect,,>400 µg/mL
Cc1cccc2c1OP(=O)(OC[C@H]1O[C@@H](n3cc(/C=C/Br)c(=O)[nH]c3=O)C[C@@H]1OC(=O)CN)OC2,VERO,EC50,plaque count,KUPKA (TK+),0.42 µg/mL
C=Cc1cn([C@@H]2O[C@H](CO)[C@@H](O)[C@@H]2F)c(=O)[nH]c1=O,HEL,EC50,plaque count,,0.074 µM
O=c1ccn([C@@H]2[Se][C@H](CO)[C@@H](O)[C@H]2O)c(=O)[nH]1,VERO,EC50,MTT,,>100 µM
Nc1ncnc2c1ccn2[C@@H]1O[C@H](CO)[C@@H](O)[C@H]1O,PRK,EC50,cytopathic effect,,>0.1 µg/mL
Cc1cn([C@@H]2O[C@H](CO)[C@@H](O)[C@@H]2O)c(=O)[nH]c1=O,HEL,EC50,plaque count,,1.78 µM
Nc1nc(=S)n([C@H]2C[C@H](O)[C@@H](CO)O2)cc1I,MRC-5,EC50,plaque count,KOS,29.4 µM
O=Nc1c(O)n(-c2ccc(F)cc2)c(=O)[nH]c1=O,VERO,EC50,cytopathic effect,Leningrad/248/88,<100 µg/mL
CCC(C)C(N)C(=O)O[C@H]1C[C@H](n2cc(/C=C/Br)c(=O)[nH]c2=O)O[C@@H]1COP1(=O)OCc2cccc(C)c2O1,VERO,EC50,plaque count,KUPKA (TK+),0.44 µg/mL
O=Nc1c(O)n(-c2cccc(C(F)(F)F)c2)c(=O)[nH]c1=O,VERO,EC50,cytopathic effect,Leningrad/248/88,100 µg/mL
COc1cc(C2c3cc4c(cc3C[C@H]3COC(=O)[C@H]23)OCO4)cc(OC)c1OC,MRC-5,EC50,,KOS,0.004 µg/mL
O=c1[nH]c(=O)n([C@H]2C[C@@H](CO)[C@H](O)C2)cc1I,HeLa,EC50,plaque count,,2.8 µM
O=S(=O)(Nc1ccccc1[Se][Se]c1ccccc1NS(=O)(=O)c1ccccc1)c1ccccc1,,MIC,,,100 µg/mL
NC(=O)c1csc([C@@H]2O[C@H](CO)[C@@H](O)[C@H]2O)n1,VERO,EC50,cytopathic effect,KOS,100 µg/mL
Nc1ncnc2c1ncn2[C@H]1C[C@H](O)[C@@H](COP([O-])(=S)O[C@H]2C[C@H](n3ccc(=O)[nH]c3=O)O[C@@H]2CO)O1,,EC50,,KOS,>20 µM
OCCOC(CCO)n1cnc2cc(Cl)c(Cl)cc21,E6SM,EC50,cytopathic effect,KOS,>100 µg/mL
O=C(Nc1ccccc1[Se][Se]c1ccccc1NC(=O)c1ccccc1)c1ccccc1,,MIC,,,>1000 µg/mL
Nc1ncnc2c1ncn2CC/C=C/P(=O)(O)O,MRC-5,EC50,cytopathic effect,SC16,>300 µM
CCCCNS(=O)(=O)c1ccc(NC(=O)CCC[Se][Se]CCCC(=O)Nc2ccc(S(=O)(=O)NCCCC)cc2)cc1,,MIC,,,>1000 µg/mL
Nc1ncnc2c1ncn2[C@@H]1[Se][C@H](CO)[C@@H](O)[C@H]1O,VERO,EC50,MTT,,>100 µM
Cc1cn([C@@H]2O[C@H](CO)[C@@H](O)[C@@H]2O)c(=O)[nH]c1=O,HEL,EC50,cytopathic effect,KOS BVDU-resistant,35 µg/mL
O=c1[nH]c(=O)n([C@H]2C[C@H](O)[C@@H](CO)O2)cc1/C=C/Br,E6SM,EC50,cytopathic effect,VMW1837 (TK-),70 µg/mL
Cc1cn([C@H]2C[C@H](O)[C@@H](CO)O2)c(=O)[nH]c1=O,MRC-5,EC50,plaque count,KOS,>413 µM
Cc1cccc2c1OP(=O)(OC[C@H]1O[C@@H](n3cc(/C=C/Br)c(=O)[nH]c3=O)C[C@@H]1OC(=O)[C@H](N)CC(C)C)OC2,VERO,EC50,plaque count,B2006 (TK-),>128 µg/mL

For reference, 4 entries again:

{"SMILES": "COc1cc(C2c3cc4c(cc3C[C@H]3COC(=O)[C@H]23)OCO4)cc(OC)c1OC", "cell line": "MRC-5", "measure": "EC50", "strain or isolate": "KOS", "value": "0.004 µg/mL"}
{"SMILES": "Nc1ncnc2c1ncn2C[C@@H](CO)OCP(=O)(O)O", "cell line": "HEL", "measure": "EC50", "read by": "cytopathic effect", "strain or isolate": "KOS S2242-resistant", "value": "0.11 µg/mL"}
{"SMILES": "Nc1ncnc2c1ncn2CC/C=C/P(=O)(O)O", "cell line": "MRC-5", "measure": "EC50", "read by": "cytopathic effect", "strain or isolate": "SC16", "value": ">300 µM"}
{"SMILES": "COC(=O)[C@]1(O)C[C@@H]2O[C@@]1(C)n1c3ccccc3c3c4c(c5c6ccccc6n2c5c31)C(=O)NC4", "cell line": "HEF", "measure": "EC50", "read by": "cytopathic effect", "strain or isolate": "K1", "value": ">25 µM"}